Anti-infective test results gathered from many reports (values: NIAID ChemDB through PubChem).

Shared fields: tests in culture; species: Herpes simplex virus 1; cells: VERO; endpoint: EC50

ECn: concentration that inhibits the pathogen or its effect by n%. Conditions beyond the fields shown may differ between rows. Two numbers with a dash give a range or band. An empty or dashed field is not shown.

| compound | strain or isolate | read by | value |
|---|---|---|---|
| CC(C)(C)[Si](C)(C)OC[C@H]1O[C@@H](n2ccc(=O)[nH]c2=O)[C@H](O[Si](C)(C)C(C)(C)C)C1(O)C(Cl)C(N)=O |  | plaque count | >3.8 µM |
| COc1ccccc1-c1nc2cc3ncccc3cc2[nH]1 | KOS | MTT | 75 µM |
| Nc1ncnc2c1ncn2[C@@H]1C[C@H](CO)[C@@H](O)[C@@H]1O | HF | cytopathic effect | 5.9 µg/mL |
| CCOP(=O)(OCC)C1=NOC(n2cc(C)c(=O)[nH]c2=O)C1 |  | plaque count | >400 µM |
| Nc1nc2c(ncn2CCCCO)c(=O)[nH]1 | C42 | plaque count | 3 µM |
| CC(C)(C)[Si](C)(C)OC[C@H]1O[C@@H](n2ccc(=O)[nH]c2=O)[C@H](O[Si](C)(C)C(C)(C)C)/C1=C/CO |  | plaque count | >5 µM |
| C[C@H](CCCC(C)(C)C)C1CCC2C3C[C@H](COS(=O)(=O)O)C4C[C@H](OS(=O)(=O)O)[C@@H](OS(=O)(=O)O)C[C@]4(C)C3CC[C@@]21C.[Na+].[Na+].[Na+] | KOS | plaque count | 6.09 µg/mL |
| Nc1ncc2c(ncn2COC(CO)CO)n1 | K1 | cytopathic effect | 0.6 µM |
| Nc1nc(=O)n([C@@H]2O[C@H](CO)[C@@H](O)[C@@H]2F)cc1I | F-ACV-C4 | plaque count | 22 µM |
| Nc1nc2c(ncn2C[C@H]2CC[C@H](P(=O)(O)O)O2)c(=O)[nH]1 | KOS | plaque count | 12.5 µg/mL |
| COc1cc2oc(-c3ccccc3)cc(=O)c2c(OC)c1OC | HF | plaque count | 3.2 µg/mL |
| COC(=O)[C@H](C)NP(=O)(OCC1C/C1=C/n1cnc2c(N)ncnc21)Oc1ccccc1 |  | plaque count | >1 µM |
| O=c1ccn([C@@H]2O[C@H](CO)[C@@H](O)[C@@H]2F)c(=O)[nH]1 | F | plaque count | 0.014 µM |
| O=c1[nH]c(=O)n([C@H]2C[C@H](O)[C@@H](COP3(=O)OCc4cccc(-c5ccccc5)c4O3)O2)cc1/C=C/Br | B2006 (TK-) | plaque count | >128 µg/mL |
| CCCCC(C)(C)[C@H](O)/C=C/[C@H]1C=CC(=O)[C@@H]1CCCCCCC(=O)O | KOS | hybridisation | 5.5 µg/mL |
| Nc1nc2c(ncn2CC[C@@H](O)CO)c(=O)[nH]1 | C915 TK- | plaque count | 420 µM |
| CCCCCCCCCCCCCC(=O)NC(C)(C)C(=O)N1C[C@@H](O)CC1C(=O)N[C@@H](CC(C)C)C(=O)N[C@H](C(=O)N[C@@H](CCC(N)=O)C(=O)N[C@H](CO)CC(C)C)C(C)C |  | cytopathic effect | 1.1 µM |
| CC(=O)O[C@]1(C)/C=C/C[C@@H](C)/C=C/[C@@]2(C)CC[C@@H](C(C)(C)O)[C@@H]2[C@@H](O)C1 |  | cytopathic effect | <15 µM |
| Cc1cn([C@@H]2O[C@H](CO)[C@@H](O)[C@@H]2F)c(=O)[nH]c1=O | F-FIAU-C1 | plaque count | 6.9 µM |
| Nc1nc2c(ncn2CCC(CO)CO)c(=O)[nH]1 | C1 (101)P2C5 | plaque count | 1.5 µg/mL |
| O=C(Cn1nnc2cc3cccnc3c(Cl)c21)Cn1nnc2cc3cccnc3c(Cl)c21 | KOS | MTT | >100 µM |
| CSc1nsc(-c2ccc(C(F)(F)F)cc2)c1C#N | F strain | plaque count | >14 µM |
| Nc1nc2c(ncn2COCCO)c(=O)o1 |  | plaque count | 100 µM |
| CCCCOc1ccc(-c2snc(SC)c2C#N)cc1 | F strain | plaque count | >50 µM |
| Nc1nc2c(ncn2COCCO)c(=O)[nH]1 | AP-resistant | plaque count | >40 µg/mL |
| CCCCNc1cn([C@@H]2C[C@H](CO)[C@@H](O)C2)c(=O)[nH]c1=O | 377 | cytopathic effect | 290 µg/mL |
| Nc1nc2c(ncn2CCC(O)CO)c(=O)[nH]1 | C42 | plaque count | 6 µM |
| Nc1nc2c(ncn2C=C2CC2CO)c(=O)[nH]1 |  | cytopathic effect | 10–100 µM |
| COc1cc(O)c2c(c1)/C=C/CCC[C@H](O)CCC[C@H](C)OC2=O | Strain F | cytopathic effect | >50 µM |
| O=c1[nH]c(=O)n([C@H]2C[C@H](O)[C@@H](CO[P@]3(=O)OCc4cccc(-c5ccccc5)c4O3)O2)cc1/C=C/Br | B2006 (TK-) | plaque count | >128 µg/mL |
| C=C(C)[C@@H]1CC[C@]2(C(=O)O)CC[C@]3(C)[C@H](CC[C@@H]4[C@@]5(C)CCC(=O)C(C)(C)[C@@H]5CC[C@]43C)[C@@H]12 | 7401H | plaque count | 2.6 µg/mL |
| C[C@H]1C/C=C/C(O)C/C=C/C(=O)Cc2c(Cl)c(O)cc(O)c2C(=O)O1 | Strain F | cytopathic effect | 6 µM |
| COCc1cn([C@H]2C[C@H](O)[C@@H](CO)O2)c(=O)nc1N | NAH | plaque count | 66 µM |
| COc1ncnc2c1ncn2[C@@H]1C[C@H](CO)[C@@H](O)[C@H]1O | HF | cytopathic effect | 7 µg/mL |
| COC(=O)[C@H](C)NP(=O)(OC[C@H]1C/C1=C/n1cnc2c(N)nc(N)nc21)Oc1ccccc1 |  | plaque count | 30 µM |
| CC(C)(C)[Si](C)(C)OC[C@H]1O[C@@H](n2ccc(=O)[nH]c2=O)[C@H](O[Si](C)(C)C(C)(C)C)C1(O)[C@H](N=[N+]=[N-])C(N)=O |  | plaque count | >3.6 µM |
| Nc1nc2c(ncn2CCCCO)c(=O)[nH]1 | C42 | plaque count | 3 µM |
| COC(=O)[C@H](C)NP(=O)(OC[C@@H]1C[C@]12C[C@@H]2n1cnc2c(N)ncnc21)Oc1ccccc1 |  |  | 20 µM |
| Cn1cc(C(=O)NCc2ccc(Cl)cc2)c(=O)c2cc(CN3CCOCC3)ccc21 | KOS-M2 | plaque count | >20 µM |
| CCOC(=O)CC1OP(=O)(OC[C@H]2O[C@@H](n3cc(/C=C/Br)c(=O)[nH]c3=O)C[C@@H]2O)Oc2cccc(Cl)c21 | B2006 (TK-) | plaque count | >128 µg/mL |
| NC(N)=NCCC[C@H](NC(=O)[C@H](Cc1c[nH]c2ccccc12)NC(=O)[C@H](Cc1c[nH]c2ccccc12)NC(=O)[C@H](CCCN=C(N)N)NC(=O)[C@H](Cc1c[nH]c2ccccc12)NC(=O)[C@H](Cc1c[nH]c2ccccc12)NC(=O)[C@@H](N)CCCN=C(N)N)C(=O)O |  | plaque count | >20 µM |
| CCN(CC)CCCOc1c2occc2cc2ccc(=O)oc12 | Clinical isolate | plaque count | 24.5 µg/mL |
| Nc1nc2c(ncn2COC(CO)CF)c(=O)[nH]1 | F | plaque count | 7 µM |
| Nc1nc(NC2CC2)c2ncn(C=C3CC3CO)c2n1 |  | plaque count | 31 µM |
| CCOC(=O)CC1(O)[C@@H](CO[Si](C)(C)C(C)(C)C)O[C@@H](n2ccc(=O)[nH]c2=O)[C@@H]1O[Si](C)(C)C(C)(C)C |  | plaque count | >3.4 µM |
| O=c1[nH]c(=O)n([C@H]2C[C@H](O)[C@@H](COP3(=O)OCc4ccc5ccccc5c4O3)O2)cc1/C=C/Br | B2006 (TK-) | plaque count | >128 µg/mL |
| COC(=O)CC1(O)C(O[Si](C)(C)C(C)(C)C)[C@H](n2ccc(=O)[nH]c2=O)O[C@@H]1CO[Si](C)(C)C(C)(C)C |  | plaque count | >3.2 µM |
| Nc1nc2c(ncn2COC(CO)CO)c(=O)[nH]1 | KOS | plaque count | 0.55 µg/mL |
| CCc1cn([C@H]2C[C@H](O)[C@@H](CO)O2)c(=O)[nH]c1=O | F-FIAC-C3 | plaque count | >200 µM |
| Nc1nc2c(ncn2[C@@H]2C=C[C@H](CO)CC2)c(=O)[nH]1 |  | cytopathic effect | 0.01–0.1 µM |
| Cc1nsc(C)c1C#N | F strain | plaque count | >1000 µM |
| Nc1nc2c(ncn2COC2COP(=O)(O)OC2)c(=O)[nH]1 |  | cytopathic effect | 3.35 µM |
| CCC(=O)OCCOCn1cnc2c(=O)oc(N)nc21 |  | plaque count | 400 µM |
| COc1cc(O)c2c(c1)CCCCCC(=O)CCC[C@H](C)OC2=O | Strain F | cytopathic effect | >50 µM |
| Cn1cc(C(=O)NCc2ccc(Cl)cc2)c(=O)c2cc(/C=C\CO)cc(F)c21 |  | plaque count | 2 µM |
| NC1=NC2C(C=CN2CC(CO)CCO)C(=O)N1 |  | cytopathic effect | 0.01–0.1 µM |
| CCOP(=O)(OCC)C1=NOC(n2ccc(NC(C)=O)nc2=O)C1 |  | plaque count | >200 µM |
| c1ccc(-c2ccc(-c3nc4cc5ncccc5cc4[nH]3)cc2)cc1 | KOS | MTT | 80 µM |
| Nc1nc(Cl)c2ncn(/C=C3/C[C@H]3CO)c2n1 | KOS | ELISA | 31 µM |
| O=C(O)P(=O)(O)O | F-ACV-C4 | plaque count | 29 µM |
| CSc1nsc(-c2ccc3ccccc3c2)c1C#N | F strain | plaque count | >20 µM |
| Nc1nc2c(ncn2COCCO)c(=O)[nH]1 | RE6 | plaque count | 0.5 µM |
| Nc1nc2c(ncn2C[C@]2(CO)C[C@H]2CO)c(=O)[nH]1 | G | cytopathic effect | 1.5 µg/mL |
| COC(=O)[C@H](C)NP(=O)(OCC1C/C1=C/n1cnc2c(N)ncnc21)Oc1ccccc1 |  | plaque count | >1 µM |
| O=C(O)CP(=O)(O)O |  |  | 57 µM |
| O=c1[nH]c(=O)n([C@H]2C[C@H](O)[C@@H](CO)O2)cc1/C=C/Br | H129 | plaque count | 0.15 µg/mL |
| Nc1ccn([C@@H]2C[C@H](CO)[C@@H](O)[C@H]2O)c(=O)n1 | HF | cytopathic effect | 68 µg/mL |
| O=c1c2cc(Cl)ccc2[nH]c2cc(O)cc(O)c12 |  |  | 22 µM |
| O=C(OC[C@H]1O[C@@H](OC(=O)c2cc(O)c(O)c(O)c2)[C@H](O)[C@@H](OC(=O)c2cc(O)c(O)c(O)c2)[C@@H]1O)c1cc(O)c(O)c(O)c1 | HF | plaque count | 0.086 µg/mL |
| CC(C)(C)[Si](C)(C)O[C@H]1[C@H](n2ccc(=O)[nH]c2=O)O[C@H](CO)C1(O)C(N=[N+]=[N-])C(N)=O |  | plaque count | >100 µM |
| Cc1nc(N(C)C(=O)Cc2ccc(-c3ccccn3)cc2)sc1S(N)(=O)=O | KT3 | plaque count | 0.04 µM |
| Nc1nc2c(ncn2COC(CO)CO)c(=O)[nH]1 | K1R | cytopathic effect | 80.3 µM |
| Nc1nc2c(ncn2C[C@H]2CS[C@H](P(=O)(O)O)O2)c(=O)[nH]1 | KOS | plaque count | 32 µg/mL |

Repeating the final 11 entries:

compound | strain or isolate | read by | value
Nc1nc2c(ncn2C[C@]2(CO)C[C@H]2CO)c(=O)[nH]1 | G | cytopathic effect | 1.5 µg/mL
COC(=O)[C@H](C)NP(=O)(OCC1C/C1=C/n1cnc2c(N)ncnc21)Oc1ccccc1 |  | plaque count | >1 µM
O=C(O)CP(=O)(O)O |  |  | 57 µM
O=c1[nH]c(=O)n([C@H]2C[C@H](O)[C@@H](CO)O2)cc1/C=C/Br | H129 | plaque count | 0.15 µg/mL
Nc1ccn([C@@H]2C[C@H](CO)[C@@H](O)[C@H]2O)c(=O)n1 | HF | cytopathic effect | 68 µg/mL
O=c1c2cc(Cl)ccc2[nH]c2cc(O)cc(O)c12 |  |  | 22 µM
O=C(OC[C@H]1O[C@@H](OC(=O)c2cc(O)c(O)c(O)c2)[C@H](O)[C@@H](OC(=O)c2cc(O)c(O)c(O)c2)[C@@H]1O)c1cc(O)c(O)c(O)c1 | HF | plaque count | 0.086 µg/mL
CC(C)(C)[Si](C)(C)O[C@H]1[C@H](n2ccc(=O)[nH]c2=O)O[C@H](CO)C1(O)C(N=[N+]=[N-])C(N)=O |  | plaque count | >100 µM
Cc1nc(N(C)C(=O)Cc2ccc(-c3ccccn3)cc2)sc1S(N)(=O)=O | KT3 | plaque count | 0.04 µM
Nc1nc2c(ncn2COC(CO)CO)c(=O)[nH]1 | K1R | cytopathic effect | 80.3 µM
Nc1nc2c(ncn2C[C@H]2CS[C@H](P(=O)(O)O)O2)c(=O)[nH]1 | KOS | plaque count | 32 µg/mL